According to patent US20250325672A1 (priority 2020, published 2025):

molecular target: spike protein S1 of SARS-COV-2 (Severe acute respiratory syndrome coronavirus 2, UniProt P0DTC2); assay: not given; type: binding; conditions: not given

| Molecule | pKD |
| --- | --- |
| Ac-(SEQ ID NO: 22) [BCY15576] | 6.88 |

molecular target: Biotinylated 2019-nCoV (COVID-19) S1 protein (16-685), His, Avitag (Severe acute respiratory syndrome coronavirus 2, UniProt P0DTC2); assay: not given; type: binding, SARS-COV-2; conditions: read-out: Geomean Average KD

| Molecule | Kd |
| --- | --- |
| A-(SEQ ID NO: 79)-A [BCY15446] | 1060 nM |
| A-(SEQ ID NO: 116)-A [BCY16207] | 8300 nM |
| A-(SEQ ID NO: 118)-A [BCY15444] | 2180 nM |
| A-(SEQ ID NO: 119)-A [BCY16927] | 18.8 nM |
| A-(SEQ ID NO: 120)-A [BCY16930] | 59.1 nM |
| A-(SEQ ID NO: 121)-A [BCY16933] | 25.3 nM |
| A-(SEQ ID NO: 122)-A [BCY16940] | 207 nM |
| A-(SEQ ID NO: 123)-A [BCY15445] | 482 nM |
| A-(SEQ ID NO: 124)-A [BCY16941] | 83.9 nM |
| A-(SEQ ID NO: 125)-A [BCY16942] | 92 nM |
| A-(SEQ ID NO: 126)-A [BCY16946] | 78.1 nM |
| A-(SEQ ID NO: 127)-A [BCY16948] | 9.79 nM |
| A-(SEQ ID NO: 128)-A [BCY16886] | 154 nM |
| A-(SEQ ID NO: 129)-A [BCY16887] | 95.3 nM |
| A-(SEQ ID NO: 130)-A [BCY16889] | 44.8 nM |
| A-(SEQ ID NO: 131)-A [BCY16895] | 43.7 nM |
| A-(SEQ ID NO: 132)-A [BCY17547] | 933 nM |
| A-(SEQ ID NO: 133)-A [BCY17548] | 1610 nM |
| A-(SEQ ID NO: 134)-A [BCY17540] | 1810 nM |
| A-(SEQ ID NO: 135)-A [BCY17541] | 245 nM |
| A-(SEQ ID NO: 136)-A [BCY17542] | 574 nM |
| A-(SEQ ID NO: 137)-A [BCY17543] | 178 nM |

| Molecule | Kd |
| --- | --- |
| A-(SEQ ID NO: 138)-A [BCY17544] | 350 nM |
| A-(SEQ ID NO: 166)-A [BCY17359] | 2250 nM |
| Ac-(SEQ ID NO: 22) [BCY15576] | 89.9 nM |
| Ac-(SEQ ID NO: 37) [BCY16926] | 2470 nM |
| Ac-(SEQ ID NO: 79)-K [BCY18654] | 1280 nM |
| Ac-(SEQ ID NO: 80) [BCY18086] | 1710 nM |
| Ac-(SEQ ID NO: 112) [BCY16910] | 22.6 nM |
| Ac-(SEQ ID NO: 116) [BCY18698] | 8900 nM |
| Ac-(SEQ ID NO: 139) [BCY17279] | 55.2 nM |
| Ac-(SEQ ID NO: 140) [BCY17281] | 105 nM |
| Ac-(SEQ ID NO: 141) [BCY17282] | 99.5 nM |
| Ac-(SEQ ID NO: 142) [BCY17283] | 225 nM |
| Ac-(SEQ ID NO: 143) [BCY17287] | 1390 nM |
| Ac-(SEQ ID NO: 144) [BCY17289] | 44.1 nM |
| Ac-(SEQ ID NO: 145) [BCY17294] | 76.3 nM |
| Ac-(SEQ ID NO: 146) [BCY17301] | 77 nM |
| Ac-(SEQ ID NO: 147) [BCY17302] | 187 nM |
| Ac-(SEQ ID NO: 148) [BCY17303] | 109 nM |
| Ac-(SEQ ID NO: 149) [BCY17304] | 122 nM |
| Ac-(SEQ ID NO: 150) [BCY17305] | 67.3 nM |
| Ac-(SEQ ID NO: 151) [BCY17306] | 37.9 nM |
| Ac-(SEQ ID NO: 152) [BCY17307] | 73.3 nM |

| Molecule | Kd |
| --- | --- |
| Ac-(SEQ ID NO: 153) [BCY17308] | 127 nM |
| Ac-(SEQ ID NO: 154) [BCY17309] | 95.3 nM |
| Ac-(SEQ ID NO: 155) [BCY17310] | 86.5 nM |
| Ac-(SEQ ID NO: 156) [BCY17311] | 33.6 nM |
| Ac-(SEQ ID NO: 157) [BCY17313] | 1350 nM |
| Ac-(SEQ ID NO: 158) [BCY18340] | 20.4 nM |
| Ac-(SEQ ID NO: 159) [BCY18341] | 66.7 nM |
| Ac-(SEQ ID NO: 160) [BCY18342] | 31.3 nM |
| Ac-(SEQ ID NO: 161) [BCY18343] | 71.5 nM |
| Ac-(SEQ ID NO: 162) [BCY18344] | 12.7 nM |
| Ac-(SEQ ID NO: 163) [BCY18345] | 34.7 nM |
| Ac-(SEQ ID NO: 164) [BCY18346] | 20.6 nM |
| Ac-(SEQ ID NO: 165) [BCY18347] | 50.3 nM |
| Ac-(SEQ ID NO: 168)-[K(PYA)] [BCY18025] | 898 nM |
| Ac-(SEQ ID NO: 169) [BCY18026] | 1160 nM |
| Ac-(SEQ ID NO: 170)-[K(PYA)] [BCY18027] | 1660 nM |
| Ac-(SEQ ID NO: 171)-[K(PYA)] [BCY18040] | 2220 nM |
| Ac-(SEQ ID NO: 172) [BCY18087] | 1220 nM |
| Ac-(SEQ ID NO: 173) [BCY18088] | 793 nM |
| Ac-(SEQ ID NO: 174)-[K(PYA)] [BCY18109] | 945 nM |
| Ac-(SEQ ID NO: 175) [BCY18110] | 829 nM |
| Ac-(SEQ ID NO: 176)-[K(PYA)] [BCY18115] | 224 nM |

| Molecule | Kd |
| --- | --- |
| Ac-(SEQ ID NO: 177)-[K(PYA)] [BCY18211] | 813 nM |
| Ac-(SEQ ID NO: 178)-[K(PYA)] [BCY18212] | 1060 nM |
| Ac-(SEQ ID NO: 179)-[K(PYA)] [BCY18351] | 717 nM |
| Ac-(SEQ ID NO: 180)-[K(PYA)] [BCY18524] | 102 nM |
| Ac-(SEQ ID NO: 181)-[K(PYA)] [BCY18527] | 1720 nM |
| Ac-(SEQ ID NO: 182)-[K(PYA)] [BCY18529] | 1240 nM |
| Ac-(SEQ ID NO: 183)-[K(PYA)] [BCY18661] | 1600 nM |
| Ac-(SEQ ID NO: 184)-[K(PYA)] [BCY18662] | 2610 nM |
| Ac-(SEQ ID NO: 185) [BCY19305] | 3500 nM |
| Ac-(SEQ ID NO: 186) [BCY19309] | 220 nM |
| Ac-(SEQ ID NO: 187)-[K(PYA)] [BCY19378] | 70.9 nM |
| Ac-(SEQ ID NO: 203)-[K(PYA)] [BCY19599] | 44.5 nM |
| Ac-(SEQ ID NO: 205)-[K(PYA)] [BCY19638] | 11.9 nM |
| Ac-(SEQ ID NO: 206)-[K(PYA)] [BCY19639] | 34.4 nM |
| Ac-(SEQ ID NO: 207)-[K(PYA)] [BCY19640] | 350 nM |
| Ac-(SEQ ID NO: 208)-[K(PYA)] [BCY19641] | 199 nM |
| Ac-(SEQ ID NO: 209)-[K(PYA)] [BCY19654] | 384 nM |
| Ac-(SEQ ID NO: 210)-[K(PYA)] [BCY19655] | 98.5 nM |
| Ac-(SEQ ID NO: 211)-[K(PYA)] [BCY19658] | 61 nM |
| Ac-(SEQ ID NO: 212)-[K(PYA)] [BCY19827] | 0.485 nM |
| Ac-(SEQ ID NO: 213)-[K(PYA)] [BCY19990] | 66.1 nM |
| Ac-(SEQ ID NO: 214)-[K(PYA)] [BCY20268] | 0.462 nM |

molecular target: Biotinylated 2019-nCoV (COVID-19) S1 protein (16-685), His, Avitag (SARS-CoV-2), P0DTC2; assay: SPR, Biacore T200, geomean; conditions: not given

| Molecule | Kd |
| --- | --- |
| ACSDLMCWYLQRTDSCA (modifications not checked) [BCY16886] | 154 nM |
| ACESNDWVYCSTCA (modifications not checked) [BCY17542] | 574 nM |
| CVNKHNPVCRFYC (modifications not checked) [BCY16911] | 12.6 nM |
| CIPLDWTCMIACK (modifications not checked) [BCY18654] | 1280 nM |
| ACDWTCYMRINDACA (modifications not checked) [BCY16946] | 78.1 nM |
| ACDWTCYMSMKPCA (modifications not checked) [BCY16930] | 59.1 nM |
| ACRSLMCWYLNQTDSCA (modifications not checked) [BCY16895] | 43.7 nM |
| ACPDVSWIYCSTCA (modifications not checked) [BCY17544] | 350 nM |
| ACEYVGPMCYRLYCA (modifications not checked) [BCY17548] | 1610 nM |
| CMNPFFYDCERTC (modifications not checked) [BCY18698] | 8900 nM |
| ACDWTCYLNIYHECA (modifications not checked) [BCY15445] | 482 nM |
| ACDWTCYISPMFDCA (modifications not checked) [BCY16940] | 207 nM |
| ACDWTCYLTMMPCA (modifications not checked) [BCY15444] | 2180 nM |
| ACDWTCYLRPLPCA (modifications not checked) [BCY16927] | 18.8 nM |
| ACDWTCYINIYNTCA (modifications not checked) [BCY16948] | 9.79 nM |
| ACNSYMCWYLQRTDSCA (modifications not checked) [BCY16887] | 95.3 nM |
| ACIPLDWTCMIACA (modifications not checked) [BCY15446] | 1060 nM |
| ACMNPFFYDCERTCA (modifications not checked) [BCY16207] | 8300 nM |
| ACPDETWVYCSTCA (modifications not checked) [BCY17541] | 245 nM |
| ACNRPTSVYCLQRGICA (modifications not checked) [BCY17359] | 2250 nM |
| ACTSYLCWYLQRTDSCA (modifications not checked) [BCY16889] | 44.8 nM |
| ACLDETWIYCSTCA (modifications not checked) [BCY17540] | 1810 nM |
| ACDWTCYLRIHEACA (modifications not checked) [BCY16942] | 92 nM |
| ACDWTCYMDYLSNCA (modifications not checked) [BCY16941] | 83.9 nM |
| ACEYNGPYCYRLYCA (modifications not checked) [BCY17547] | 933 nM |
